# According to patent US20240324531A1, “METHOD TO INCREASE POLLEN FERTILITY” (Keygene N.V., priority 2021, published 2024):
# Test system: pollen of AC interspecific hybrids from a cross of Brassica oleracea and Brassica rapa
# Settings: higher concentrations (above 0.5 μM), 10 days
compound,measurement,setting,value
"NC1=NC(=O)C(=Cc2ccc(O)cc2)S1 [Mirin, 2-Amino-5-[(4-hydroxyphenyl)methylene]-4(5H)-thiazolone]",pollen size and viability at higher concentrations (MTT staining),,larger but non-viable pollen
same,pollen size and viability at higher concentrations (MTT staining),listed as mirin,bigger but not viable pollen

# Where two headings read alike, the source gives them in different places.
